Earlier results in US7678774B2 (priority 2003, dated 2010).

System: SARS coronavirus
Conditions: cited from earlier work

Row | Substance | In vitro anti-SARS-CoV activity
1 | Intron A | not found to be active
2 | Roferon | not found to be active
